Anti-infective test results gathered from many reports (values: NIAID ChemDB through PubChem).

Common to all: whole-cell or culture tests; organism: Hepatitis B virus; read by: PCR; endpoint: EC50

An empty or dashed field is not shown. ECn is the concentration giving n% inhibition of infection, replication or growth. Two numbers with a dash give a range or band. Lines come from different laboratories, so protocols vary.

{"SMILES": "C[C@@H]1Cn2c(c(C(=O)NCc3ccccc3-n3cncn3)n(-c3ccc(OC4CC4)cc3)c2=O)CN1C(=O)c1ccc(Br)c(Cl)c1", "cells": "HepG2.117", "value": "0.1–0.5 µM"}
{"SMILES": "Cc1c(S(=O)(=O)Nc2ccc3c(C(=O)Nc4ccc(F)c(Cl)c4)n(C)nc3c2)cnn1-c1ccccn1", "cells": "HepAD38", "value": "100–1000 µM"}
{"SMILES": "CCOC(=O)C1=C(CN2CC(F)(F)[C@@H]3[C@H]2CON3C[C@H](O)C(CC)(CC)C(=O)O)NC(c2nccs2)=N[C@H]1c1cccc(F)c1C", "cells": "HepG2.2.15", "value": "0.0195 µM"}
{"SMILES": "C=CCNS(=O)(=O)CNc1ccc2c(C(=O)Nc3ccc(F)c(Cl)c3)n(C)nc2c1", "cells": "HepAD38", "value": "<100 µM"}
{"SMILES": "O=C(c1ccc(Br)c(Cl)c1)N1CCS(=O)(=O)[C@@](F)(C(=O)NCCc2ccccc2)C1", "cells": "HepG2.117", "value": "0.5–5 µM"}
{"SMILES": "CCOC(=O)C1=C(CN2CC(F)(F)[C@H]3[C@@H]2CCN3C[C@@](C)(F)C(=O)O)NC(c2nccs2)=N[C@H]1c1cccc(F)c1C", "cells": "HepG2.2.15", "value": "0.0065 µM"}
{"SMILES": "CNC(=O)c1ccc(-n2c(=O)c3c(n4ncc(Cc5ccc(OC)cc5F)c24)CN(C(=O)c2ccc(Br)c(Cl)c2)CC3)cc1", "conditions": "3 d", "cells": "HepG2.117", "value": "<0.1 µM"}
{"SMILES": "Cc1c(C(=O)C(=O)NC2(c3cn[nH]c3)COC2)c(C)n(C)c1C(=O)Nc1ccc(F)c(C(F)(F)F)c1", "cells": "HepG2.2.15", "value": "<0.001 µM"}
{"SMILES": "N#Cc1cc(C(=O)N2CCc3c(n4ncc(Cc5ccccc5)c4n(-c4ccc(-c5ncc[nH]5)cc4)c3=O)C2)ccc1Br", "conditions": "3 d", "cells": "HepG2.117", "value": "0.5–5 µM"}
{"SMILES": "CCOC(=O)C1=C(CN2CC(F)(F)[C@@H]3[C@H]2CON3C[C@@H](O)C(C)(C)C(=O)O)NC(c2nccs2)=N[C@H]1c1cccc(F)c1Cl", "cells": "HepG2.2.15", "value": "0.024 µM"}
{"SMILES": "CC(C)NC(=O)c1cnn2c3c(c(=O)n(-c4ccccc4)c12)CCN(C(=O)c1ccc(Cl)c(Cl)c1)C3", "conditions": "3 d", "cells": "HepG2.117", "value": ">5 µM"}
{"SMILES": "C#CCNC(=O)C(=O)c1c(C)c(C(=O)Nc2ccc(F)c(C(F)(F)F)c2)n(C)c1C", "cells": "HepG2.2.15", "value": "0.001–0.00999 µM"}
{"SMILES": "CCOC(=O)C1=C(CN2CC(F)(F)[C@@H]3[C@H]2CON3C[C@@H](OC)C(C)(C)C(=O)O)NC(c2nccs2)=N[C@H]1c1cccc(F)c1C", "cells": "HepG2.2.15", "value": "0.0095 µM"}
{"SMILES": "Cc1c(C(=O)C(=O)NC(C)(C)c2ccnn2C)c(C)n(C)c1C(=O)Nc1ccc(F)c(C(F)(F)F)c1", "cells": "HepG2.2.15", "value": "0.001–0.0099 µM"}
{"SMILES": "O=C(NCc1ccccc1)c1c2n(c(=O)n1-c1ccc3sccc3c1)CCN(C(=O)c1ccc(Br)c(Cl)c1)C2", "cells": "HepG2.117", "value": "0.1–0.5 µM"}
{"SMILES": "CCOC(=O)C1=C(CN2CC(F)(F)[C@@H]3[C@H]2CON3C[C@H](O)C(C)(C)C(=O)O)NC(c2nc(C)cs2)=N[C@H]1c1cccc(F)c1C", "cells": "HepG2.2.15", "value": "0.0425 µM"}
{"SMILES": "C[C@H]1CS(=O)(=O)[C@@](F)(c2ncc(Cc3ccccc3)s2)CN1C(=O)c1ccc(Br)c(Cl)c1", "cells": "HepG2.117", "value": ">5 µM"}
{"SMILES": "CN(C)CCn1cc(S(=O)(=O)Nc2ccc3c(C(=O)Nc4ccc(F)c(Cl)c4)n(C)nc3c2)cn1", "cells": "HepAD38", "value": "100–1000 µM"}
{"SMILES": "CCOC(=O)C1=C(CN2CC(F)(F)[C@@H]3[C@H]2CON3C[C@@H](F)C(C)(C)C(=O)O)NC(c2nccs2)=N[C@H]1c1ccc(F)c(F)c1C", "cells": "HepG2.2.15", "value": "0.003 µM"}
{"SMILES": "O=C(NCc1ccc(OC2COC2)cc1F)c1c2n(c(=O)n1-c1ccc(OCC(F)(F)F)cc1)CCN(C(=O)c1ccc(Br)c(Cl)c1)C2", "cells": "HepG2.117", "value": "0.1–0.5 µM"}
{"SMILES": "Cn1cc(NS(=O)(=O)Nc2ccc3c(C(=O)Nc4ccc(F)c(Cl)c4)n(C)nc3c2)cn1", "cells": "HepAD38", "value": "100–1000 µM"}
{"SMILES": "Cc1c(C(=O)C(=O)NC2(c3cnc[nH]3)COC2)c(C)n(C)c1C(=O)Nc1ccc(F)c(C(F)(F)F)c1", "cells": "HepG2.2.15", "value": "<0.001 µM"}
{"SMILES": "CN(C)CCn1cc(S(=O)(=O)Nc2cc(F)c3c(C(=O)Nc4ccc(F)c(Cl)c4)n(C)nc3c2)cn1", "cells": "HepAD38", "value": "100–1000 µM"}
{"SMILES": "CCOC(=O)C1=C(CN2CC(F)(F)[C@H]3[C@@H]2CCN3C[C@H](OC)C(C)(C)C(=O)O)NC(c2nc(C)cs2)=N[C@H]1c1cccc(F)c1C", "cells": "HepG2.2.15", "value": "0.014 µM"}
{"SMILES": "Cn1nc2cc(NS(=O)(=O)N3CC(O)C3)ccc2c1C(=O)Nc1ccc(F)c(Cl)c1", "cells": "HepAD38", "value": "100–1000 µM"}
{"SMILES": "CO[C@@H]1CN(Cc2ccccc2)C(=O)c2c3n(c(=O)n2C1)CCN(C(=O)c1ccc(Br)c(Cl)c1)C3", "cells": "HepG2.117", "value": "0.5–5 µM"}
{"SMILES": "Cc1c(C(=O)C(=O)NC(C)(C)c2cncnc2)c(C)n(C)c1C(=O)Nc1ccc(F)c(C#N)c1", "cells": "HepG2.2.15", "value": "0.001–0.0099 µM"}
{"SMILES": "CC(C)Oc1ccc(-n2c(C(=O)NCc3ccccc3)c3n(c2=O)CCN(C(=O)/C=C/c2cccc(Cl)c2Cl)C3)cc1", "cells": "HepG2.117", "value": ">5 µM"}
{"SMILES": "COc1ccc(-n2c(=O)c3c(n4ncc(NC(C)=O)c24)CN(C(=O)c2ccc(Cl)c(Cl)c2)CC3)cc1", "conditions": "3 d", "cells": "HepG2.117", "value": "0.5–5 µM"}
{"SMILES": "O=C(Nc1ccc(F)c(Cl)c1)N1CCS(=O)(=O)[C@@H](c2ccccc2)C1", "cells": "HepG2.117", "value": ">5 µM"}
{"SMILES": "C#C[C@@](CO)(NC(=O)C(=O)c1c(C)c(C(=O)Nc2ccc(F)c(C#N)c2)n(C)c1C)C1CC1", "cells": "HepG2.2.15", "value": "0.001–0.0099 µM"}
{"SMILES": "O=C(NCc1ccccc1)c1c2n(c(=O)n1-c1ccc3nonc3c1)CCN(C(=O)c1ccc(Br)c(Cl)c1)C2", "cells": "HepG2.117", "value": "0.5–5 µM"}
{"SMILES": "CCOC(=O)C1=C(CN2CC(F)(F)[C@H]3[C@@H]2CCN3C[C@](C)(O)C(=O)O)NC(c2nccs2)=N[C@H]1c1cccc(F)c1F", "cells": "HepG2.2.15", "value": "0.021 µM"}
{"SMILES": "Cn1nc2cc(NS(=O)(=O)NC3CN(c4ccccc4)C3)ccc2c1C(=O)Nc1ccc(F)c(Cl)c1", "cells": "HepAD38", "value": "100–1000 µM"}
{"SMILES": "COc1ccc(CN2C[C@@H](O)Cn3c(c4n(c3=O)CCN(C(=O)c3ccc(Br)c(Cl)c3)C4)C2=O)c(F)c1", "cells": "HepG2.117", "value": "0.1–0.5 µM"}
{"SMILES": "Cn1nc2cc(S(=O)(=O)NCC3CN(C(=O)OC(C)(C)C)C3)ccc2c1C(=O)Nc1ccc(F)c(Cl)c1", "cells": "HepAD38", "value": "100–1000 µM"}
{"SMILES": "O=C(c1ccc(Cl)cc1Cl)N1CCS(=O)(=O)[C@H](c2cccs2)C1", "cells": "HepG2.2.15", "value": "0.5–5 µM"}
{"SMILES": "COc1ccc(-n2c(C(=O)N[C@@H](c3ccccc3)C(F)F)c3n(c2=O)CCN(C(=O)c2ccc(Br)c(Cl)c2)C3)cc1", "cells": "HepG2.117", "value": "0.1–0.5 µM"}
{"SMILES": "Cn1cnc(S(=O)(=O)Nc2ccc3c(C(=O)Nc4ccc(F)c(Cl)c4)n(C)nc3c2)c1", "cells": "HepAD38", "value": "<100 µM"}

Repeating the final 5 entries:

SMILES	conditions	cells	value
COc1ccc(CN2C[C@@H](O)Cn3c(c4n(c3=O)CCN(C(=O)c3ccc(Br)c(Cl)c3)C4)C2=O)c(F)c1	-	HepG2.117	0.1–0.5 µM
Cn1nc2cc(S(=O)(=O)NCC3CN(C(=O)OC(C)(C)C)C3)ccc2c1C(=O)Nc1ccc(F)c(Cl)c1	-	HepAD38	100–1000 µM
O=C(c1ccc(Cl)cc1Cl)N1CCS(=O)(=O)[C@H](c2cccs2)C1	-	HepG2.2.15	0.5–5 µM
COc1ccc(-n2c(C(=O)N[C@@H](c3ccccc3)C(F)F)c3n(c2=O)CCN(C(=O)c2ccc(Br)c(Cl)c2)C3)cc1	-	HepG2.117	0.1–0.5 µM
Cn1cnc(S(=O)(=O)Nc2ccc3c(C(=O)Nc4ccc(F)c(Cl)c4)n(C)nc3c2)c1	-	HepAD38	<100 µM